From patent US7678778B2 (priority 2004, dated 2010)

Assay: Storage stability of lyophilized compound (purity assay)
Type: physicochemical
Details: −23° C., 3 months

## O=P(O)(NCCCl)NCCCl
  purity on storage: 70%
